Literature values, collected in patent US8221566B1.
Some compounds may have been tested in ways that are not shown here.

Tested on: Pseudomonas aeruginosa
Settings: aqueous, in 5 min; cited from earlier work

hydrogen fluoride
Concentration of aq. HF that destroys the organism: 200 ppm
